# The list shows a part of the results, in another mix than the full data. Calls of active or inactive are those of the source. Cut-off read from the data, not from the text of the source: active = inhibition mostly above about 34% (no sharp cut-off); inconclusive = no clear call, values can overlap the other calls; inactive = mostly below about 22%.
# Chains of the proteins cited; added tags and fusions are not shown.
# UniProt P9WH09, whole entry, looked up: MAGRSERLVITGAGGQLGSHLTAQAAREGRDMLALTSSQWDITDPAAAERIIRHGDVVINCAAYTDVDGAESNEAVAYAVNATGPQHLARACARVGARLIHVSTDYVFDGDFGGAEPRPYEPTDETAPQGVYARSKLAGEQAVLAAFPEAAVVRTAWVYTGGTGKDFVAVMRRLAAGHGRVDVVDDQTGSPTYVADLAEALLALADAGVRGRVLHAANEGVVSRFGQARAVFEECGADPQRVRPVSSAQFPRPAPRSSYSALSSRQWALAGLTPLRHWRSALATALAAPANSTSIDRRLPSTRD
# UniProt P9WH11, whole entry, looked up: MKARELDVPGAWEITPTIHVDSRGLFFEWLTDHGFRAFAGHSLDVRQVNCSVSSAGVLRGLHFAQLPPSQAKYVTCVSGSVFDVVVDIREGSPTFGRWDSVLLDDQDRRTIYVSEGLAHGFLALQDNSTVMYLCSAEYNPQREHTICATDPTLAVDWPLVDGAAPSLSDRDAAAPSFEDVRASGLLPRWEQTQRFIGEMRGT
# Biological target: dTDP-4-dehydrorhamnose reductase (Mycobacterium tuberculosis (strain ATCC 25618 / H37Rv)) + dTDP-4-dehydrorhamnose 3,5-epimerase (Mycobacterium tuberculosis (strain ATCC 25618 / H37Rv)) (UniProt P9WH09+P9WH11)
# Assay: M. tuberculosis RmlC/RmlD coupled enzyme inhibitors, primary screen, biochemical, compound mixtures, 384-well, from 1536-well plates (AID 1533)
# Settings: RmlC+RmlD coupled enzyme assay, percent inhibition; primary screen in compound mixtures; at 3.6 µM; hits give high values
row,SMILES,inhibition
1,O=[N+]([O-])c1ccc(OP2(=O)COCCO2)cc1 (stereo unspecified),inactive: 4.11%

# — PubChem BioAssay AID1533 (PCMD, 2009)
